The values below come from US20230399650.

Data set [1] has as its system VapBC hetero-octamer, wild-type VapB (VapBQ12C) (Shigella sonnei). In words: EMSA. Conditions: 0-605 nM VapBC, 88 nM DNA, 2 mM MgCl2, 37 C, purified recombinant protein, protein details: His-VapC (pET28a-VapCB, N-terminal His on VapC). A general note: A gel shift assay detects complexes by their altered migration in electrophoresis.
Data set [2] has the same test system. The data set is described as follows: SPR. Conditions: equilibrium not reached, 50 mM Tris pH 8.0, 150 mM NaCl, 25 C; purified recombinant protein; protein details: His-VapC (pET28a-VapCB, N-terminal His on VapC); label: 5' biotin.

For at least one entry, the source does not settle the construct or the ends of the probe.

For “ATCATAAACGTATATCCCTTTGACATATCCCG (double strand) [vapBC operator site 1 (SH152)]”, the binding result in data set [1] (100 mM KCl) is “binds”.
Regarding “ATCATAAACGTATATCCCTTTGACATATCCCG (double strand) [vapBC operator site 1, biotinylated for SPR (SH180 printed)]”, the binding result in data set [2] was “binds”.
As for “TCATCATAAACGTATATCCCTTTGACATATCCCGGTATCAATCCCACAATAGATATACACAAGACATATCCACATAAGGA (double strand) [vapBC promoter region with operator sites O1 and O2 (SH150)]”, the binding result in data set [1] (20 mM Tris pH 7.5, 100 mM KCl) is “binds”.
